# Source: PMC11904993, “Humanized Candida and NanoBiT Assays Expedite Discovery of Bdf1 Bromodomain Inhibitors With Antifungal Potential” (Advanced Science, 2025)
# Chains of the proteins cited; added tags and fusions are not shown. Residues count along the entry.
# UniProt Q6FWV7, 100-228 limits assumed: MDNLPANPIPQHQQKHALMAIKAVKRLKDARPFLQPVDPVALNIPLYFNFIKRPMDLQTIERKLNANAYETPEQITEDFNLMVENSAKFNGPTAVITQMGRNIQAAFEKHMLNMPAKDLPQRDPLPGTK
# For part of its entries the source gives two or more results. This is not the full list of results. An entry can have further records. Results that share an entry differ for a reason that is not stated; some may be repeats, others may stem from another dose, organism or construct than stated.
# Target: CgBdf1 BD1 (Candida glabrata, UniProt Q6FWV7)
# Experiment: HTRF assay, inhibition of H4ac4 peptide binding
# Design: species or system C. glabrata
# Settings: Fig 1D/2A original data; single experiments Exp1-3
row,Compound,pIC50 CgBD1
1,CCCN(CC1CC1)C(=O)C1C(c2cc(OC)c(OC)c(OC)c2)c2cc3c(cc2C(O)C1CO)OCO3 (centres unmarked),"6.449, 6.662, 6.248"
2,COc1cccc(NC(=O)Cn2ccc3ccc(-c4nnc(C)o4)cc32)c1,"5.375, 6.029, 5.387"
